# Results of single-concentration screens

The values are deposited in ChEMBL (CHEMBL3988442, “University of Dundee, Small-Polar-MMV Screening Library” (2021)).

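Phenotypic screen: M. tuberculosis growth, cholesterol and DPPC medium, 4 days; the read-out is not stated. Compounds at 50 µM. Higher reads as more growth inhibition (inferred: compounds with an IC50 in retests scored well above the rest). Size under these conditions: about 69,000 compounds, about 370 of them at 50% or above in at least one test.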

Results are given as percent effect. How 0% and 100% were set is not recorded. Most values in the screen are low, and negative values occur. This is part of a subset picked to be rich in strong results. Two or more numbers in one place are separate tests of the same structure; such repeats can differ widely.

SMILES | effect
Cc1cccnc1CN1CCOC(Cc2cccc3ccccc23)C1 (stereo not given) | 17.29 & 25.03
CCOc1ccc(CN2CCCC(c3cc4ncccc4[nH]3)C2)cc1 (stereo not given) | 37.51 & 43.69
Br.Cc1ccc(C(=O)CN(C2=NCCCCC2)c2ccccc2)cc1 | 35.63
Cc1ccc2nc(-c3cnc(N)nc3)cc(C(=O)N(C)C)c2c1 | -10.63
c1ccc(-c2nccc(N3CCc4c(ncn4C4CC4)C3)n2)cc1 | 16.77
COc1ccccc1C(=O)N1CCOC2(CCCN(C(C)=O)C2)C1 (stereo not given) | -3.238 & 9.51
CCN(Cc1cnn(C)c1)C[C@H]1CC[C@@H](Cc2ccc(CO)cc2)O1 | -8.933
NC(=O)COc1ccc(CNCc2ccc(Cl)c(F)c2)cc1 | -4.553
CC1Oc2c(cccc2C(=O)N2CCCCCC2)NC1=O (stereo not given) | -7.945
CCc1nc2n(n1)CC(NCc1nc(C)c(C)o1)CC2 (stereo not given) | 53.19
Cc1cc(NCCSc2nccn2C)n2nc(C)c(C)c2n1 | 5.629 & -0.161
CCc1ocnc1C(=O)N1CCC2(CC1)OCC(C)O2 (stereo not given) | 22.23
COc1cc(C(=O)NCCc2ccc(OC)c(OC)c2)on1 | 7.531
CNCc1cc(F)ccc1Oc1ccc(Cl)cc1 | -5.799
CCC(C)Oc1ccc(CNCCNC(C)=O)cc1Cl (stereo not given) | 1.695
CCc1ccccc1OC1CN(C(=O)c2ccnc(OC)c2)C1 | 66.86
CC(C)c1ncc(C(=O)N(C)c2ccc(Br)cn2)s1 | 0.2385
Cc1cnn(CCNCC(O)COc2ccc(Cl)cc2Cl)c1 (stereo not given) | 24.87
Cc1ccc2[nH]c(=O)cc(C(=O)NCCCn3nccc3C3CC3)c2c1 | -10.07 & 54.51
CCOCCSc1nnc(Cc2ccccc2F)o1 | 64.66 & 60.02
O=C(CNC(=O)C1(c2ccc(F)cc2F)CCC1)Nc1ccccn1 | 13.03
Cc1nc(N)ncc1C(=O)N1CCCC(CCc2ccccc2F)C1 (stereo not given) | 5.931
CC(C)c1nccn1C1CCCN(C(=O)c2ccc3[nH]cnc3c2)C1 (stereo not given) | 3.381
COCCN(Cc1ccc(OC)nc1)Cc1cccs1 | -1.578
COc1cc(Oc2ccc(C(N)=O)cn2)ccc1CN1CCCC1 | -7.559
COCC(=O)N1CCC(C(=O)c2cc(C)cnc2N)CC1 | -8.118
Nc1cc(N2CCCC(COc3ccc(F)cc3)C2)ncn1 (stereo not given) | 11.34